Compound potency records, mixed from different reports. Data source: NIAID ChemDB in PubChem.

All rows: toxicity to cultured cells; cell line: CEM; measure: CC50

a–b is a range or a potency band. Blank or dashed fields: not listed here. Rows are shuffled and stem from different studies. CCn is the concentration with n% toxicity to the cells.

{"smiles": "N#CC1(c2ccccc2)CCCN1C(=O)c1ccccc1Br", "method": "absorbance", "value": ">100 µM"}
{"smiles": "COc1cc(OC[C@H]2CC[C@@H](CO)O2)ncn1", "value": ">50 µM"}
{"smiles": "CCOc1cc(/C=N/NC(=O)Cn2nc(-c3ccccc3)c3c2-c2ccccc2S(=O)(=O)N3C)ccc1O", "value": "<1 µM"}
{"smiles": "C=C(C)[C@@H]1CC[C@]2(C(=O)NCC(=O)NCCCCCCCC(=O)O)CC[C@]3(C)[C@H](CC[C@@H]4[C@@]5(C)CC[C@H](O)C(C)(C)[C@@H]5CC[C@]43C)[C@@H]12", "value": ">3 µM"}
{"smiles": "Cc1ccc(N2C(=O)CCC2(C#N)c2ccc(OCc3c(Cl)cccc3Cl)cc2)cc1", "method": "absorbance", "value": "16.6 µM"}
{"smiles": "C[C@H](CS(C)(=O)=O)C(=O)N[C@@H](Cc1ccccc1)[C@H](O)CN1C[C@H]2CCCC[C@H]2C[C@H]1C(=O)NC(C)(C)C", "value": "2 µM"}
{"smiles": "COc1ccc(/C=N/NC(=O)Cn2nc(-c3ccccc3)c3c2-c2ccccc2S(=O)(=O)N3C)cc1", "value": "20.7 µM"}
{"smiles": "C=C(C)[C@@H]1CC[C@]2(C(=O)NCCCCCCCC(=O)N[C@@H](CC(C)C)[C@@H](O)CC(=O)O)CC[C@]3(C)[C@H](CC[C@@H]4[C@@]5(C)CC[C@H](O)C(C)(C)[C@@H]5CC[C@]43C)[C@@H]12", "value": ">3 µM"}
{"smiles": "Nc1nc2c(ncn2[C@H]2S[C@@H](CO)C=C2F)c(=O)[nH]1", "value": ">10.4 µM"}
{"smiles": "Cc1cn([C@H]2O[C@@H](CO)[C@H](O)C2(F)F)c(=O)[nH]c1=O", "value": ">100 µM"}
{"smiles": "CCC[C@H](NP(=O)(OC[C@@H]1C=C[C@H](n2cc(C)c(=O)[nH]c2=O)O1)Oc1ccccc1)C(=O)OC", "value": "≥250 µM"}
{"smiles": "Cc1cn(CC2(CO)CC2CO)c(=O)[nH]c1=O", "value": ">100 µg/mL"}
{"smiles": "CN1c2c(-c3ccccc3)nn(CC(=O)N/N=C/c3ccc(Cl)cc3)c2-c2ccccc2S1(=O)=O", "value": "44.9 µM"}
{"smiles": "Nc1nc2c(ncn2[C@@H]2O[C@@H](CO)[C@H](O)C2(F)F)c(=O)[nH]1", "value": ">100 µM"}
{"smiles": "O=c1[nH]c(=O)n(C2C[C@H](CO)[C@@H](CO)C2)cc1I", "value": ">200 µg/mL"}
{"smiles": "CC1=C(/C=C/C(C)=C/C=C/C(C)=C/C(=O)O)C(C)(C)CCC1", "method": "MTT", "value": ">1 µM"}
{"smiles": "C=C(C)[C@@H]1CC[C@]2(C(=O)NCCCCCCCC(=O)N[C@@H](CC(=O)O)c3ccccc3)CC[C@]3(C)[C@H](CC[C@@H]4[C@@]5(C)CC[C@H](O)C(C)(C)[C@@H]5CC[C@]43C)[C@@H]12", "value": "5.95 µM"}
{"smiles": "Nc1ccn([C@H]2O[C@@H](CO)[C@H](O)C2(F)F)c(=O)n1", "value": ">100 µM"}
{"smiles": "COc1cc(OC[C@H]2CC[C@@H](CO)O2)nc(N)n1", "value": ">50 µM"}
{"smiles": "Nc1ccn(CC2(CO)CC2CO)c(=O)n1", "value": ">100 µg/mL"}
{"smiles": "O=c1[nH]cnc2c1ncn2C1C[C@H](CO)[C@@H](CO)C1", "value": ">200 µg/mL"}
{"smiles": "c1ccc(COC[C@@H]2CC[C@H](COc3ncnc4nc[nH]c34)O2)cc1", "value": "13 µM"}
{"smiles": "Nc1nc(=O)n([C@H]2O[C@@H](CO)[C@H](O)C2(F)F)cc1Br", "value": ">100 µM"}
{"smiles": "Nc1nc(Cl)cc(OC[C@@H]2O[C@H](COCc3ccccc3)[C@@H](OCc3ccccc3)[C@H]2OCc2ccccc2)n1", "value": "35 µM"}
{"smiles": "COC(=O)C(C)(C)NP(=O)(OC[C@@H]1C=C[C@H](n2cc(C)c(=O)[nH]c2=O)O1)Oc1ccccc1", "value": "225 µM"}
{"smiles": "O=c1[nH]cnc2c1ncn2[C@H]1O[C@@H](CO)[C@H](O)C1(F)F", "value": ">100 µM"}
{"smiles": "CC(C)Nc1nc2cc(Cl)c(Cl)cc2n1[C@H]1O[C@@H](CO)[C@H](O)[C@@H]1O", "value": "35–72 µM"}
{"smiles": "Nc1nc(OC[C@H]2CC[C@@H](CO)O2)c2[nH]cnc2n1", "value": ">250 µM"}
{"smiles": "O=c1[nH]c(=O)n([C@@H]2O[C@@H](CO)[C@H](O)C2(F)F)cc1Br", "value": ">100 µM"}
{"smiles": "Nc1nc(Cl)cc(OC[C@H]2CC[C@@H](COCc3ccccc3)O2)n1", "value": "110 µM"}
{"smiles": "C=C(C)[C@@H]1CC[C@]2(C(=O)NCCCCCCCCCCC(=O)O)CC[C@]3(C)[C@H](CC[C@@H]4[C@@]5(C)CC[C@H](O)C(C)(C)[C@@H]5CC[C@]43C)[C@@H]12", "value": ">3 µM"}
{"smiles": "Nc1nc(=O)n([C@@H]2O[C@H](CO)[C@@H](CO)[C@@H]2F)cc1F", "value": "≥100 µM"}
{"smiles": "COC(=O)[C@@H](NP(=O)(OC[C@@H]1C=C[C@H](n2cc(C)c(=O)[nH]c2=O)O1)Oc1ccccc1)c1ccccc1", "value": "≥250 µM"}
{"smiles": "CC(=O)Nc1ccc(/C=N/NC(=O)Cn2nc(-c3ccccc3)c3c2-c2ccccc2S(=O)(=O)N3C)cc1", "value": "44.6 µM"}
{"smiles": "Nc1nc(OC[C@H]2CC[C@@H](COCc3ccccc3)O2)c2[nH]cnc2n1", "value": "191 µM"}
{"smiles": "O=c1[nH]c(=O)n([C@@H]2C[C@H](CO)C[C@H]2CO)cc1I", "value": ">200 µg/mL"}
{"smiles": "O=c1ccn([C@@H]2O[C@@H](CO)[C@H](O)C2(F)F)c(=O)[nH]1", "value": ">100 µM"}
{"smiles": "Cc1ccc(N2C(=O)CCC2(C#N)c2ccc(OCc3ccccc3)cc2)cc1", "method": "absorbance", "value": "30.3 µM"}

Repeating the final 3 entries:

smiles	method	value
O=c1[nH]c(=O)n([C@@H]2C[C@H](CO)C[C@H]2CO)cc1I		>200 µg/mL
O=c1ccn([C@@H]2O[C@@H](CO)[C@H](O)C2(F)F)c(=O)[nH]1		>100 µM
Cc1ccc(N2C(=O)CCC2(C#N)c2ccc(OCc3ccccc3)cc2)cc1	absorbance	30.3 µM